The nature of this series: Pigskin staining test. On the set-up: species or system pig; key to Staining: +: tends to stain certain surfaces; −: do not stain. The settings on record: for Staining Results: about 10 μL on pigskin, about 24 hours, room temperature; for Staining: Table 14 summary.

This is an account of results in patent US7476767B2, “Alpha-hydroxy sulfonate aldehydes, germicidal compositions containing the alpha-hydroxy sulfonate aldehydes, or mixtures of alpha-hydroxy sulfonate aldehydes and phthalaldehydes, and methods of using the compounds or compositions for disinfection or sterilization” (Ethicon, Inc., priority 2004, dated 2009).

For `O=Cc1cccc(C=O)c1` [IPA, isophthalaldehyde], the Staining entry is on record as “−”. Further, the “Staining Results” value (0.20% solution) is “Non-Staining”.

Consider `O=Cc1ccccc1C=O` [OPA, phthalaldehyde], for which the Staining entry is “+”. For the same compound, for the setting “0.14% solution”, the “Staining Results” value is given as “Dark Staining”.

Turning to `O=Cc1ccc(C=O)cc1` [TPA, terephthalaldehyde], the Staining result is recorded as “−”.
